This note sets out measurements from paper PMC3656124, “DNA Topoisomerase II Is Involved in Regulation of Cyst Wall Protein Genes and Differentiation in Giardia lamblia” (PLoS Neglected Tropical Diseases, 2013).

The target of the series is T1, Topo IIC (UniProt E2RU90).
T1 sequence (looked up, limits assumed): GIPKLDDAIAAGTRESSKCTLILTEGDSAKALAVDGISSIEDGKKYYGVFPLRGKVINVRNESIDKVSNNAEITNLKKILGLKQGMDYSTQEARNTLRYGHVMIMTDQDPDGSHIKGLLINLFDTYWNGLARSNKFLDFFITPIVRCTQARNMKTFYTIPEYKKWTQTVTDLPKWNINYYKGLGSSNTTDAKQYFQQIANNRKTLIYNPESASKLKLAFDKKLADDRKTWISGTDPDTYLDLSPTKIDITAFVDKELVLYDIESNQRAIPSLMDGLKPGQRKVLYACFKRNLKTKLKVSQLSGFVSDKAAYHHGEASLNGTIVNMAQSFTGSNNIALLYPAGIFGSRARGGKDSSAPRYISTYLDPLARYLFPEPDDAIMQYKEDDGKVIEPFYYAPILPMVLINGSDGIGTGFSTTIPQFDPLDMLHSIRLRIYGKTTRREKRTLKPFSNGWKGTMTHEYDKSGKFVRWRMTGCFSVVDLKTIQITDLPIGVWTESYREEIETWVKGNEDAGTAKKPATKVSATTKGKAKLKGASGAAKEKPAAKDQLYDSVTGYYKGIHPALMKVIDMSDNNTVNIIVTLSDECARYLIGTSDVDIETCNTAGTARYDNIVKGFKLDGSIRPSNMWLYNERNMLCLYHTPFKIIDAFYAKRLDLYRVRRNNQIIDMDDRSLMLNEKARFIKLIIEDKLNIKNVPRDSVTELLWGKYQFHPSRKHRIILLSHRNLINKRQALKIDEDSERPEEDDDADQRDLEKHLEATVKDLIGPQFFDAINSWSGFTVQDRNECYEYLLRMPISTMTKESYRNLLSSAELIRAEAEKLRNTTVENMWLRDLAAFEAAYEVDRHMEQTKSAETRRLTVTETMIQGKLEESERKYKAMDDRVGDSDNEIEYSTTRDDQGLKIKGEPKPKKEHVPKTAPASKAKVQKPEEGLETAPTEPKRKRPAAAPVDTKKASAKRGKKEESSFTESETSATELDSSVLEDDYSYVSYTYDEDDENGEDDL
As to the kind of experiment: EMSA. The settings on record: EMSA: 0.02 pmol 5'-labeled probe, 5 ng protein, 20 ul, 0.5 ug poly(dI-dC), 15 min, room temperature, 6% acrylamide gel; salt and pH only by citation; recombinant protein; protein details: C-terminal V5-His; label: 5'-32P. For orientation: In EMSA bound probe runs differently from free probe, usually more slowly.

Construct, isoform or probe ends are uncertain for at least one entry. At least one verdict rests on a figure or table, not on a statement of the authors. Protein sequences can lack the tags named with them.

Take “GGGGCAGGGGCCACAGCAGGGGACCCTCTA (double strand) [137620vsp-30/-1]”: the binding result was “binds”.
